# Reference: US20110200615A1 (published 2011)
# B1: 2B29 scFv (yeast displayed) (scFv)
# scFv: QVQLQESGPGLVKPSETLSLTCSVSGGSINSGTYYWTWIRQHPGKGLEWIGYIYYSGTTYYNPSLKSRVSMSVDTSKNLFSLKMNSVTAADTALYYCARGNPQYDTSGSYTGLYFDFWGQGTLVTVSSGGGGSGGGGSGGGGSQPVLTQSPSASGTPGQRVTISCSGSSSNLGSNTVSWYQQLPGTAPKLLIYSNNQRPSGVPDRFSGSKSGTSASLAISGLQSEDEADYYCATWDDSLSGGVFGGGTKLTVLG
# B2: 4A1.1 IgG (antibody, V domains shown)
# VH: QVQLVQSGGGLAQPGGSLRLSCAASGFTFGSYSMNWVRQAPGKGLEWVSSITGNSGLIYYADSVKGRFTVSRDNAKNSLFLHMHSLRADDTAVYYCARDPGWIYSDTSAAGWFDPWGHGTLVTVSS
# VL: DVVMTQSPSTLSASVGDRVTITCRASQTISSYLNWYQQKPGKAPKLLIYAASSLQSGVPSRFSGSGSGTDFTLTISSLQPEDFATYYCQQSYDTPRTFGQGTRLEIK
# Experiments:
# [1] = target: Botulinum neurotoxin type B, subtype B3 (BoNT/B3) (Clostridium botulinum); assay: flow cytometry; yeast-displayed scFv, soluble toxin
# [2] = target: Botulinum neurotoxin type B, subtype B4 (BoNT/B4) (Clostridium botulinum); assay: as above
# [3] = target: Botulinum neurotoxin type A, subtype A2 (BoNT/A2, FRI-H1A2) (Clostridium botulinum, UniProt Q45894 2-1296); assay: KinExA flow fluorimetry; IgG in solution
Binder,Kd [1] [nM],Kd [2] [nM],Kd [3] [nM]
B1,1.61,1.29,
B2,,,> 1
